Data as given in US20200024639A1.

Target: HA-NanoLuc-VAMP2 (UniProt P63027)
Assay: cell-based or functional assay

## botulinum neurotoxin type D (from UniProt P19321 2-1276) (enzyme)
  cleavage of the reporter in SiMa cells, immunoblot with total VAMP2 antibody: 10 nM
